Results of unrelated studies side by side (data: NIAID ChemDB).

Common to all: toxicity to cultured cells; cells: HepG2.2.15; read-out: CC50

An empty or dashed field is not shown. Rows are shuffled and stem from different studies. CCn is the concentration with n% toxicity to the cells.

{"structure": "C=C(C)[C@H](OC(=O)COC)[C@H](C[C@@H](C)[C@]12CC[C@@]3(C)[C@@]1(C[C@H](OC(=O)COC)[C@H]1[C@@]4(C)CCC(=O)C(C)(C)[C@@H]4CC[C@@]13C)O2)OC(=O)COC", "value": ">1300 µM"}
{"structure": "CN(C)S(=O)(=O)NCC(=O)Nc1ccc(Cl)nc1Cl", "read by": "MTS", "value": "142 µM"}
{"structure": "Clc1ccc(COC(Cn2ccnc2)c2ccc(Cl)cc2Cl)c(Cl)c1", "read by": "MTT", "value": "17.3 µM"}
{"structure": "CCCCC/C=C\\CCCCCCCC(O)/C=C/C=C/C(=O)NCC(C)C", "read by": "MTT", "value": "1560 µM"}
{"structure": "CCOCC(=O)O[C@H]1C[C@@H]2C(=CC[C@@H]3[C@@]2(C)C(=O)C[C@]2(C)C([C@@](C)(O)C(=O)CCC(C)(C)O)[C@H](OC(=O)COCC)C[C@@]32C)C(C)(C)[C@@H]1OC(=O)COCC", "value": "184.5 µM"}
{"structure": "OCCc1c(Nn2nnc3ccccc32)nc2ccc(Cl)cc2c1-c1ccccc1Cl", "value": "82.4 µM"}
{"structure": "CCOC(=O)c1c(CSc2ccc(F)cc2)nc2c(O)c(CN3CCCCC3)c(Br)cn12", "read by": "MTT", "value": "27.8 µM"}
{"structure": "O=C(CNC(=O)c1ccc(F)cc1)Nc1ccc(Cl)nc1Cl", "read by": "MTS", "value": "144 µM"}
{"structure": "COC(=O)C1=C(CN2CC(F)(F)[C@H]3[C@@H]2CCN3CC[C@@](C)(O)C(=O)O)NC(c2nccs2)=N[C@H]1c1ccc(F)c(F)c1C", "read by": "WST / absorbance", "value": ">50 µM"}
{"structure": "CCOC(=O)c1c(CSc2cccc(OC)c2)nc2c(O)c(CN3CCCC3)c(Br)cn12", "read by": "MTT", "value": "51.4 µM"}
{"structure": "C=C(C)[C@H](O)CC[C@]1(C)CC[C@]2(C)[C@H]3CC[C@@]4(C)[C@@H](CCC(=O)[C@@H]4C)[C@]3(C)CC[C@@]2(C)C1", "read by": "sulforhodamine", "value": "172.4 µM"}
{"structure": "C=C(C)[C@@H]1CC[C@]2(C(=O)OC)CC[C@]3(COC(=O)c4ccccc4)C(CCC4[C@@]5(C)CC[C@H](OC(C)=O)CC5C(C)(C)C[C@]43C)C12", "read by": "MTT", "value": "127.2 µM"}
{"structure": "CC(=O)OC(C)(C)[C@H](OC(=O)C(C)C)[C@H](C[C@@H](C)C1=C2C[C@H](OC(=O)C(C)C)[C@H]3[C@@]4(C)CCC(=O)C(C)(C)[C@@H]4CC[C@]3(C)[C@@]2(C)CC1)OC(=O)C(C)C", "value": ">1900 µM"}
{"structure": "Cc1cc(NC(=O)c2ccc(F)c(Br)c2)ccc1F", "value": ">100 µM"}
{"structure": "COc1nc2ccc(Cl)cc2c(-c2ccccc2Cl)c1CCO", "value": "141.2 µM"}
{"structure": "C[C@H](C[C@H](O[Si](C)(C)C)[C@@H](O[Si](C)(C)C)C(C)(C)O[Si](C)(C)C)C1=C2C[C@H](O[Si](C)(C)C)[C@H]3[C@@]4(C)CCC(=O)C(C)(C)[C@@H]4CC[C@]3(C)[C@@]2(C)CC1", "value": ">51 µM"}
{"structure": "Nc1cc(F)c(S(=O)(=O)N2CCC(O)CC2)cc1C(=O)Nc1ccc(Cl)c(C(F)F)c1", "read by": "MTT", "value": "30.1 µM"}
{"structure": "CCOC(=O)C1=C(CN2CC(F)(F)[C@@H]3[C@H]2CON3C[C@H](O)C(C)(C)C(=O)O)NC(c2nccs2)=N[C@H]1c1ccc(F)c(F)c1Cl", "read by": "WST / absorbance", "value": "100 µM"}
{"structure": "CCC(=O)O[C@@H](C[C@@H](C)C1=C2C[C@H](OC(=O)CC)[C@H]3[C@@]4(C)CCC(=O)C(C)(C)[C@@H]4CC[C@]3(C)[C@@]2(C)CC1)[C@@H](OC(=O)CC)C(C)(C)OC(C)=O", "value": ">1700 µM"}
{"structure": "C[C@H](C[C@H](OC(=O)COc1ccccc1)[C@@H](OC(=O)COc1ccccc1)C(C)(C)O)C1=C2C[C@H](OC(=O)COc3ccccc3)[C@H]3[C@@]4(C)CCC(=O)C(C)(C)[C@@H]4CC[C@]3(C)[C@@]2(C)CC1", "value": ">1300 µM"}
{"structure": "CCOC(=O)c1c(CSc2ccc(F)cc2)nc2c(O)c(CN(C)C)c(Br)cn12", "read by": "MTT", "value": "166.4 µM"}
{"structure": "CCOC(=O)C1=C(CN2CC(F)(F)[C@@H]3[C@H]2CON3CC[C@](C)(O)C(=O)O)NC(c2nccs2)=N[C@H]1c1ccc(F)c(F)c1Cl", "read by": "WST / absorbance", "value": ">100 µM"}
{"structure": "CCOCC(=O)O[C@H]1C[C@H]2[C@]3(C)C(=O)C[C@]4(C)C([C@@](C)(O)C(=O)CCC(C)(C)OC(C)=O)[C@H](OC(=O)COCC)C[C@@]4(C)[C@@H]3C[C@H]3O[C@]32C(C)(C)[C@@H]1OC(=O)COCC", "value": ">633.3 µM"}
{"structure": "C[C@H](C[C@H](OC(=O)Cc1ccc([N+](=O)[O-])cc1)[C@@H](OC(=O)Cc1ccc([N+](=O)[O-])cc1)C(C)(C)O)C1=C2C[C@H](OC(=O)Cc3ccc([N+](=O)[O-])cc3)[C@H]3[C@@]4(C)CCC(=O)C(C)(C)[C@@H]4CC[C@]3(C)[C@@]2(C)CC1", "value": ">1000 µM"}
{"structure": "CCOC(=O)c1c(CSc2ccccc2)nc2c(O)c(CN3CCCC3)c(Br)cn12", "read by": "MTT", "value": "27.8 µM"}
{"structure": "CCOCC(=O)O[C@@H](C[C@@H](C)[C@]12CC[C@@]3(C)[C@@]1(C[C@H](OC(=O)COCC)[C@H]1[C@@]4(C)CCC(=O)C(C)(C)[C@@H]4CC[C@@]13C)O2)[C@@H](OC(=O)COCC)C(C)(C)O", "value": "250 µM"}
{"structure": "CN(CC(=O)Nc1ccc(Cl)cc1Cl)C(=O)c1ccccn1", "read by": "MTS", "value": "276 µM"}
{"structure": "COCC(=O)O[C@H]1C[C@H]2[C@]3(C)C(=O)C[C@]4(C)C([C@@](C)(O)C(=O)CCC(C)(C)OC(C)=O)[C@H](OC(=O)COC)C[C@@]4(C)[C@@H]3C[C@@H](O)[C@@]2(OC(=O)c2cccc(Cl)c2)C(C)(C)[C@@H]1OC(=O)COC", "value": ">1740 µM"}
{"structure": "CC(=O)OC(C)(C)[C@H](OC(=O)c1ccccc1)[C@H](C[C@@H](C)C1=C2C[C@H](OC(=O)c3ccccc3)[C@H]3[C@@]4(C)CCC(=O)C(C)(C)[C@@H]4CC[C@]3(C)[C@@]2(C)CC1)OC(=O)c1ccccc1", "value": ">1700 µM"}
{"structure": "OCCc1c(Cl)nc2ccc(Cl)cc2c1-c1ccccc1Cl", "value": "42.5 µM"}
{"structure": "CCOC(=O)c1c(CSc2ccc(Br)cc2)nc2c(O)c(CN3CCN(C)CC3)c(Br)cn12", "read by": "MTT", "value": "31 µM"}

For reference, 2 entries again:

structure | read by | value
CCC(=O)O[C@@H](C[C@@H](C)C1=C2C[C@H](OC(=O)CC)[C@H]3[C@@]4(C)CCC(=O)C(C)(C)[C@@H]4CC[C@]3(C)[C@@]2(C)CC1)[C@@H](OC(=O)CC)C(C)(C)OC(C)=O | - | >1700 µM
CCOC(=O)c1c(CSc2ccc(Br)cc2)nc2c(O)c(CN3CCN(C)CC3)c(Br)cn12 | MTT | 31 µM